# Test system: HCV dual reporter subgenomic replicon (B6b cell line)
# Assay: HCV dual reporter subgenomic replicon assay, Renilla luciferase (antiviral activity)
# Type: cell-based, Hepatitis C virus
# Conditions: therapeutic index = CC50 divided by EC50
# Description: The compounds described herein were tested for antiviral activity utilizing a dual-reporter replicon assay as described in U.S. patent application Ser. No. 10/818,075 (the '075 application), filed Apr. 5, 2004. The disclosure of the '075 application is incorporated herein.
# Cell-based antiviral activity was evaluated in the previously described HCV dual reporter subgenomic replicon system (the '075 application). With this system, the effects of a compound on both HCV replication and cell viability can be simultaneously determined by measuring the intracellular levels of two separate reporter proteins. The dicistronic selectable replicon contains the Renilla luciferase gene such that Renilla luciferase activity within stably-transfected cells serves as a marker of HCV replication. The firefly luciferase gene is stably integrated into and expressed by the Huh-7 host cells. Since firefly luciferase activity is dependent upon cellular transcription and translation, firefly luciferase activity serves as an indicator of cell viability.
# The dual reporter selectable replicon cell line (B6b) was maintained in DMEM supplemented with 10% FBS, L-glutamine, non-essential amino acids, penicillin, streptomycin, and selection agents (200 ug/ml G418 and 6 ug/ml blastocidin). On the first day of the experiment, cells were trypsinized, washed, and diluted in medium lacking the selection agents. Cells were transferred to 96-well, black-walled, clear bottom plates at a density of 2×10^4 cells in 150 ul of medium per well. Cells were allowed to settle for 60 to 90 minutes while compounds were being prepared. Each compound was initially diluted to a 4× working stock (2.56% DMSO in tissue culture medium) that was then serially diluted nine times in half log increments in medium with 2.56% DMSO. Fifty microliters of each dilution were then added in triplicate to the plated cells in order to obtain final IX compound concentrations with 0.64% DMSO. Typical testing concentrations ranged from 320 uM to 10 nM. Control wells containing 0.64% DMSO without compound were also included on each plate.
# After 3 days of incubation under humidity at 37° C. with 5% CO2, plates were microscopically examined for compound precipitation and cell death. Tissue culture medium was then aspirated and cells were lysed with 20 ul of 1× Passive Lysis Buffer (Promega, Madison, Wis.). Reporter activity was measured using a MicroBeta Jet 1450 (Perkin Elmer, Boston, Mass.) following sequential 50 ul additions of firefly and Renilla luciferase substrates as described in the manufacturers protocol (Promega). Luciferase activities were expressed as a percentage of the signals observed in the compound-free control wells. The amount of compound required to reduce Renilla luciferase expression by 50% is defined as the 50% effective concentration, or EC50. The amount of compound that reduces firefly luciferase expression by 50% is defined as the 50% cytotoxic concentration, or CC50. A therapeutic index (TI) is calculated by dividing the CC50 by the EC50.
row,SMILES,Replicon TI
1,"Cn1ccnc1-c1cc2nccc(O[C@@H]3C[C@H]4C(=O)N[C@]5(C(=O)O)C[C@H]5/C=C\CCCCC[C@H](NC(=O)OC(C)(C)C)C(=O)N4C3)c2s1 [Example 86, (2R,6S,12Z,13aS,14aR,16aS)-6-[(tert-butoxycarbonyl)amino]-2-{[2-(1-methyl-1H-imidazol-2-yl)thieno[3,2-b]pyridin-7-yl]oxy}-5,16-dioxo-1,2,3,6,7,8,9,10,11,13a,14,15,16,16a-tetradecahydrocyclopropa[e]pyrrolo[1,2-a][1,4]diazacyclopentadecine-14a(5H)-carboxylic acid]",>21
2,"Cn1ccnc1-c1cc2nccc(O[C@@H]3C[C@H]4C(=O)N[C@]5(C(=O)O)C[C@H]5/C=C\CCCCC[C@H](NC(=O)OC5CCCC5)C(=O)N4C3)c2s1 [Example 89, (2R,6S,12Z,13aS,14aR,16aS)-6-{[(Cyclopentyloxy)carbonyl]amino}-2-{[2-(1-methyl-1H-imidazol-2-yl)thieno[3,2-b]pyridin-7-yl]oxy}-5,16-dioxo-1,2,3,6,7,8,9,10,11,13a,14,15,16,16a-tetradecahydrocyclopropa[e]pyrrolo[1,2-a][1,4]diazacyclopentadecine-14a(5H)-carboxylic acid]",>640
3,"Cn1ccnc1-c1cc2nccc(O[C@@H]3C[C@H]4C(=O)N[C@]5(C(=O)O)C[C@H]5/C=C\CCCCC[C@H](NC(=O)CC5CC5)C(=O)N4C3)c2s1 [Example 91, (2R,6S,12Z,13aS,14aR,16aS)-6-[(Cyclopropylacetyl)amino]-2-{[2-(1-methyl-1H-imidazol-2-yl)thieno[3,2-b]pyridin-7-yl]oxy}-5,16-dioxo-1,2,3,6,7,8,9,10,11,13a,14,15,16,16a-tetradecahydrocyclopropa[e]pyrrolo[1,2-a][1,4]diazacyclopentadecine-14a(5H)-carboxylic acid]",>1100

# Reference: US20070249637A1, “Inhibitors Of Hepatitis C Virus Protease, And Compositions And Treatments Using The Same” (priority 2004, published 2007)
